In PMC9888711, “Pneumococcal capsule expression is controlled through a conserved, distal cis-regulatory element during infection” (PLOS Pathogens, 2023):

How the values were obtained:
[1] = target: SpxRDBD (Streptococcus pneumoniae D39) (UniProt A0A0H2ZR90); assay: EMSA; conditions: EMSA: 20 mM HEPES pH 7.2, 50 mM NaCl, 5 mM MgCl2, 1 mM CaCl2, 0.1 mM EDTA, 12% glycerol, 10 mM DTT, 0.5 uM DNA, 400 ng poly(dI-dC); recombinant protein; residues 1-63; protein details: His6-SUMO removed by Ulp1; label: 6-FAM forward
[2] = target: CpsR (Streptococcus pneumoniae D39) (UniProt A0A0H2ZMA3); assay: EMSA; conditions: EMSA: 20 mM HEPES pH 7.2, 50 mM NaCl, 5 mM MgCl2, 1 mM CaCl2, 0.1 mM EDTA, 12% glycerol, 10 mM DTT, 0.5 uM DNA, 400 ng poly(dI-dC); recombinant protein; protein details: His6-SUMO removed by Ulp1; label: 6-FAM forward
[3] = target: SpxR (Streptococcus pneumoniae D39) (UniProt A0A0H2ZR90); assay: negative stain EM; conditions: 50 mM NaCl, C3 trimer wheel, low resolution; recombinant protein; protein details: His6-SUMO removed by Ulp1

| Sequence | binding result [1] | binding result [2] | binding result [3] |
| --- | --- | --- | --- |
| GAAACTAGAATAGTACAC (double strand) [37-CE 3' IR+3] | binds |  |  |
| GTGTACTATATTATATTGA (double strand) [37-CE 5' IR+4] | binds |  |  |
| GTGTACTATATTATATTGAAA (double strand) [21-CE] | binds | binds |  |
| TGAAACTAGAATAGTACAC (double strand) [37-CE 3' IR+4] | binds |  |  |
| TGTACTATATTATATTG (double strand) [37-CE 5' IR+3] | binds |  |  |
| TGTGTACTATATTATATTGAAACTAGAATAGTACACA (double strand) [37-CE] |  |  | binds |

For at least one entry, the source does not settle the construct or the ends of the probe. At least one verdict was read from the data and is not stated in words by the source.
